PubChem BioAssay AID504761 | Drosophila RNAi Screening Center – 2011
Aim: 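Genome-wide fly cell screen for genes dengue virus requires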 (primary screen). Cell system: D.Mel-2 cells from Drosophila. Knock-down reagent: long dsRNA against Drosophila genes. Treatment: infection with dengue virus type 2; dose and infection time not stated. Read-out: 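Cells stained for dengue envelope protein and imaged; percent of infected cells per well on duplicate plates, ranked by infection, with stained nuclei counted for cell number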. Direction: infection score: higher = more virus-infected cells; cell count: higher = more cells in the well. Rule for the call: 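Low infection ranks in the two replicates (chance level up to 0.065) followed by a retest with a 1.5-fold or larger significant decrease, p below 0.05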. Calls: active = confirmed: knock-down lowers infection; inactive = not picked or not confirmed.
In all, the deposit lists about 22,000 reagents; this is an unselected part of those with a known target gene and a result. Of all reagents, 116 (0.52%) are marked active. 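Calls depend on retest data that are not deposited; infection was ranked per plate without normalising between plates; the unit of the infection score is not given.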 Raw values vary from plate to plate and are shown uncorrected. A number with no mark means an inactive call. The numbers tell different reagents against one gene apart. Names joined by + are all predicted targets of the reagent. The record does not give: the amount of reagent, the time to read-out.

| predicted target | reagent no. | infection score, replicate 1 | infection score, replicate 2 | cell count, replicate 1 | cell count, replicate 2 |
| --- | --- | --- | --- | --- | --- |
| Muc18B (GeneID 32913) | 1 | 1.93 | 6.02 | 6123 | 6746 |
| Muc18B (GeneID 32913) | 2 | 7.97 | 12.8 | 2774 | 3667 |
| hgo (GeneID 34552) | 1 | 15.9 | 12.9 | 4912 | 5111 |
| CG14082 (GeneID 40088) | 1 | 7.81 | 3.31 | 5813 | 5946 |
| CG14082 (GeneID 40088) | 2 | 1.94 | 3.67 | 6660 | 6651 |
| GstE14 (GeneID 36467) | 1 | 9.11 | 12.4 | 6147 | 5601 |
| GstE14 (GeneID 36467) | 2 | 1 | 8.79 | 6681 | 5953 |
| TwdlM (GeneID 43200) | 1 | 2.36 | – | 1314 | 333 |
| CG4297 (GeneID 33222) | 1 | 10.2 | 13.1 | 6411 | 6585 |
| CG4598 (GeneID 34315) | 1 | 19.1 | 8.08 | 5314 | 6005 |
| CG5608 (GeneID 41543) | 1 | 16.9 | 16.1 | 7020 | 6476 |
| dpr20 (GeneID 38101) | 1 | 6.19 | 4.79 | 6449 | 6341 |
| CG7465 (GeneID 38553) | 1 | 3.51 | 3.14 | 5782 | 5800 |
| CG7465 (GeneID 38553) | 2 | 2.46 | 8.45 | 5734 | 6439 |
| CG7465 (GeneID 38553) | 3 | 6.93 | 3.74 | 5675 | 6233 |
| mtg (GeneID 40970) | 1 | 5.46 | 5.74 | 6441 | 6536 |
| mtg (GeneID 40970) | 2 | 9.96 | 5.95 | 6629 | 6889 |
| CG34178 + CG34177 | 1 | 3.34 | 5.59 | 6528 | 7008 |
| Drsl6 (GeneID 38416) | 1 | 8.18 | 4.5 | 6113 | 5262 |
| alpha-Est4 (GeneID 40906) | 1 | 5.5 | 4.38 | 6491 | 6661 |
| alpha-Est4 (GeneID 40906) | 2 | 13.3 | 8.38 | 6479 | 6636 |
| CG33191 + Pif1B | 1 | 5.58 | 3.05 | 5945 | 5282 |
| bru1 (GeneID 34648) | 1 | – | 4.56 | 1219 | 5020 |
| bru1 (GeneID 34648) | 2 | 0.52 | 1.13 | 5603 | 5565 |
| bru1 (GeneID 34648) | 3 | 4.19 | 2 | 6587 | 6641 |
| bru1 (GeneID 34648) | 4 | 5.2 | 2.51 | 6225 | 6527 |
| bru1 (GeneID 34648) | 5 | 12.4 | 12.2 | 6625 | 6441 |
| fd3F (retired record) (GeneID 246673) | 1 | 1.22 | 4.33 | 5996 | 6836 |
| CG17047 (GeneID 36478) | 1 | 14.5 | – | 3692 | 370 |
| CG12321 (GeneID 42174) | 1 | 19.1 | 17 | 5926 | 6311 |
| CG12321 (GeneID 42174) | 2 | 8.51 | 7.03 | 2410 | 6045 |
| nab (GeneID 3346237) | 1 | 1.19 | 0.83 | 6201 | 5921 |
| nab (GeneID 3346237) | 2 | 3.38 | 2.24 | 5777 | 5527 |
| CG6083 (GeneID 39305) | 1 | 1.86 | 6.25 | 6091 | 6195 |
| CG6083 (GeneID 39305) | 2 | 8.2 | 7.08 | 5501 | 5720 |
| Sr-CI (GeneID 33621) | 1 | 18.4 | 21 | 6270 | 5833 |
| Sr-CI (GeneID 33621) | 2 | 2.48 | 1.93 | 6464 | 6418 |
| CG13794 (GeneID 34048) | 1 | 12.2 | 0.8 | 6255 | 628 |
| CG13794 (GeneID 34048) | 2 | 11.7 | 15.3 | 6005 | 5760 |
| CG15537 (GeneID 43614) | 1 | 5.12 | 2.86 | 4548 | 6543 |
| CG15537 (GeneID 43614) | 2 | 3.32 | 1.72 | 6419 | 5993 |
| CG4480 (GeneID 34864) | 1 | 5.61 | 12.6 | 6402 | 3834 |
| CG18518 (GeneID 34932) | 1 | 1.69 | 1.73 | 5399 | 5032 |
| Ets98B (GeneID 43334) | 1 | 1.72 | 8.13 | 6235 | 6517 |
| Ets98B (GeneID 43334) | 2 | 0.72 | 0.82 | 6136 | 5731 |
| CG6793 (GeneID 39369) | 1 | 2.29 | 9.85 | 6893 | 6631 |
| CG6793 (GeneID 39369) | 2 | – | 22.7 | 386 | 6366 |
| pinta (GeneID 42635) | 1 | 9.1 | 1.48 | 6099 | 6693 |
| CG32767 (GeneID 31430) | 1 | 1.32 | 2.56 | 6042 | 6144 |
| CG32767 (GeneID 31430) | 2 | 8.96 | 7.08 | 6036 | 5731 |
| RpS3A (GeneID 43768) | 1 | – | – | 275 | 451 |
| CG12985 (GeneID 32774) | 1 | 4.56 | 17.4 | 6759 | 6161 |
| CG12985 (GeneID 32774) | 2 | 8.72 | 6.75 | 6419 | 6131 |
| Atf3 (GeneID 43867) | 1 | 1.39 | 11.5 | 5845 | 6197 |
| TTLL6A (GeneID 37253) | 1 | 5.33 | 0.81 | 6344 | 6951 |
| TTLL6A (GeneID 37253) | 2 | 6.56 | 4.05 | 6178 | 6105 |
| CG30178 (GeneID 246501) | 1 | 6.87 | 2.68 | 6316 | 5710 |
| Agps (GeneID 36669) | 1 | 17.5 | 10.5 | 5348 | 4699 |
| Agps (GeneID 36669) | 2 | 7.22 | 7.07 | 1843 | 5885 |
